The results in this text go back to patent US20220204996A1.

In the experiment the target is PsaC-HydA1 chimeric polypeptide (Chlamydomonas reinhardtii). Briefly: cell-based or functional assay.

On to “ferredoxin (Fd) (from UniProt P07839 33-126)”, for which the Maximal rate of H2 production, TAP in the dark (GC) (µmol H2 (mg Chl)^-1 h^-1) came to 1.5 and the average rate of H2 accumulation in the dark (GC-TCD, ΨH2 culture) (µmol H2 (mg Chl)^-1 h^-1) amounted to 1.13.
